Target: 2019 novel coronavirus (2019-nCoV) spike protein receptor-binding domain (2019-nCoV)
Test: BLI

Amino acid sequences for entries named in this document (tags omitted). Residues count along the entry.
UniProt Q9BYF1, 18-805: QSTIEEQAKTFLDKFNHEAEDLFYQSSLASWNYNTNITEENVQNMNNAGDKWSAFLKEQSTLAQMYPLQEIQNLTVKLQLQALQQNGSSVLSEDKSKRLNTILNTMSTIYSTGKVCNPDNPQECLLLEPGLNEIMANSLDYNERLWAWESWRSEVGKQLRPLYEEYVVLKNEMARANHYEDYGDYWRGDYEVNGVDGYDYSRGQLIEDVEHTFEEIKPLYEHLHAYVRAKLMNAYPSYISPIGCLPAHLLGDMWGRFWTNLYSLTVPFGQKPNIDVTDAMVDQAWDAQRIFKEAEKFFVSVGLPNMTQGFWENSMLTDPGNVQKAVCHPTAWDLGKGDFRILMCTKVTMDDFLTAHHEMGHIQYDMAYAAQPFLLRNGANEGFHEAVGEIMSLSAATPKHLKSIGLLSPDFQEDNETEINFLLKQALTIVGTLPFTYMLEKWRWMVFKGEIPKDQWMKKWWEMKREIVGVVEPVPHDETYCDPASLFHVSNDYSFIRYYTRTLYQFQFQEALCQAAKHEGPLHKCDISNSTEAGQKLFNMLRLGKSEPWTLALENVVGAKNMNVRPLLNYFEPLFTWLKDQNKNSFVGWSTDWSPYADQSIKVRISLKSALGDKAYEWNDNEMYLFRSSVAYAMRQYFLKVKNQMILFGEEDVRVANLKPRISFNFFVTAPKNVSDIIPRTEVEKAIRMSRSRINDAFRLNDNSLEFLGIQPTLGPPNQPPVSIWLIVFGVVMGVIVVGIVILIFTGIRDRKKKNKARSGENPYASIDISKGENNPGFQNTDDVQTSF

“human angiotensin-converting enzyme 2 (from UniProt Q9BYF1 18-805) (receptor)” was tested, and the Kd was 15.2 nM.

Reference: publication PMC7048180
